PubChem BioAssay AID1224833, University of Georgia – 2016
Aim: 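Human genes whose knock-down alters rotavirus replication in monkey cells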 (primary screen). Cells: monkey MA104 kidney cells. Reagents: siRNA pool against human genes, 50 nM. Duration: 48 h knock-down before infection; read 24 h after infection. Challenge: infection with rotavirus strain RV3 two days after transfection; infectious dose for this stage not given. Detection: 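Rotavirus antigen per well by fluorescent immunoassay, normalised to non-targeting control wells on each plate and given as a standard z-score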. Direction: z-score vs non-targeting control: higher = more rotavirus replication than with non-targeting control. Active means: In these data the active calls have z-score vs non-targeting control at about -1 or lower, or at about 1 or higher. Meaning of the calls: active = z-score beyond 1 either way; inactive = z-score within 1 of zero.
In all, the deposit lists about 12,000 reagents; below is a random part of them. Over the whole deposit, about 5,600 (46%) were called active. 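Active calls cover z-scores past 1 in both directions, so they include lowered as well as raised rotavirus replication.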

The opening 2 entries as a preview:
{"target": "TP53INP1", "z-score vs non-targeting control": -1.99, "Call": "active"}
{"target": "XKR6", "z-score vs non-targeting control": -2.49, "Call": "active"}

Results, from the start:
{"target": "TP53INP1", "z-score vs non-targeting control": -1.99, "Call": "active"}
{"target": "XKR6", "z-score vs non-targeting control": -2.49, "Call": "active"}
{"target": "CHST12", "z-score vs non-targeting control": -2.21, "Call": "active"}
{"target": "LY96", "z-score vs non-targeting control": -0.827, "Call": "inactive"}
{"target": "PNO1", "z-score vs non-targeting control": -1.96, "Call": "active"}
{"target": "RPL27", "z-score vs non-targeting control": 2.32, "Call": "active"}
{"target": "EVI5", "z-score vs non-targeting control": 1.77, "Call": "active"}
{"target": "CENPF", "z-score vs non-targeting control": 0.0797, "Call": "inactive"}
{"target": "INTS6L", "z-score vs non-targeting control": 1.72, "Call": "active"}
{"target": "FYCO1", "z-score vs non-targeting control": 0.235, "Call": "inactive"}
{"target": "CACHD1", "z-score vs non-targeting control": -0.757, "Call": "inactive"}
{"target": "MYADM", "z-score vs non-targeting control": -0.365, "Call": "inactive"}
{"target": "HAUS1", "z-score vs non-targeting control": 0.422, "Call": "inactive"}
{"target": "SAMD8", "z-score vs non-targeting control": -1.6, "Call": "active"}
{"target": "HIP1", "z-score vs non-targeting control": -1.63, "Call": "active"}
{"target": "PPCDC", "z-score vs non-targeting control": -0.77, "Call": "inactive"}
{"target": "TTC31", "z-score vs non-targeting control": 1.41, "Call": "active"}
{"target": "MEGF8", "z-score vs non-targeting control": -0.259, "Call": "inactive"}
{"target": "CENPA", "z-score vs non-targeting control": 0.27, "Call": "inactive"}
